Source: publication PMC6168691, “The amino‐terminal domain of Mycobacterium tuberculosis ClpB protein plays a crucial role in its substrate disaggregation activity” (FEBS Open Bio, 2018)
Several values for one entry are separate records, joined by “and”; a condition that tells them apart may be missing. Identical values can stand only once.

What was measured:
[1] = target: recombinant firefly luciferase (firefly); test: cell-based or functional assay
[2] = target: κ-casein; test: cell-based or functional assay
[3] = target: recombinant firefly luciferase (firefly); test: cell-based or functional assay; remark: listed apart in the source
[4] = target: malate dehydrogenase from pig heart (pig); test: cell-based or functional assay
[5] = target: Mycobacterium tuberculosis DnaK (Mycobacterium tuberculosis); test: cell-based or functional assay
[6] = target: the molecule itself; test: SEC; Superdex-200, buffer A; protein 0.2 mg/mL incubated with 5 mM ADP for 10 min at room temperature before loading
[7] = target: the molecule itself; test: SEC; Superdex-200 (1 × 60 cm), buffer A (50 mM Tris/HCl pH 7.5, 100 mM KCl, 10% glycerol, 1 mM EDTA, 1 mM DTT); protein loaded at 0.2 mg/mL, no nucleotide

B1: Mycobacterium tuberculosis ClpB V141K (natural protein)
chain: not shown
[1]
  reactivation of large aggregates of luciferase (heat-aggregated 15 min) with KJE; luminescence, in parenthesis percent of WT ClpB: 140000 RLU s^−1
  reactivation of large aggregates of luciferase (heat-aggregated 15 min) without KJE; luminescence, in parenthesis percent of WT ClpB: 51000 RLU s^−1
  reactivation of small aggregates of luciferase (heat-aggregated 5 min) with KJE; luminescence, in parenthesis percent of WT ClpB: 430000 RLU s^−1
  reactivation of small aggregates of luciferase (heat-aggregated 5 min) without KJE; luminescence, in parenthesis percent of WT ClpB: 280000 RLU s^−1

B2: Mycobacterium tuberculosis ClpB, full length ([…]) (natural protein)
chain: not shown
notes: also called Mtb ClpB; WT ClpB
[2]
  stimulation of the ATPase activity of ClpB by κ‐casein (0.2 mg·mL^−1): > 3 fold
[3]
  prevention of heat aggregation of 0.3 μM luciferase at 43 °C (turbidity at 320 nm), 0.25 μM to 8-fold more ClpB, 5 mM ATP; luciferase kept unaggregated: ~95%
[4]
  reactivation of large aggregates of MDH by ClpB against ClpB∆N: ~2 fold
[5]
  ATPase activity of ClpB with 1 μM DnaK against ClpB alone: 2 fold
[1]
  reactivation of large aggregates of luciferase (heat-aggregated 15 min) with KJE; luminescence, in parenthesis percent of WT ClpB: 170000 RLU s^−1
  reactivation of large aggregates of luciferase (heat-aggregated 15 min) without KJE; luminescence, in parenthesis percent of WT ClpB: 82000 RLU s^−1
  reactivation of small aggregates of luciferase (heat-aggregated 5 min) with KJE; luminescence, in parenthesis percent of WT ClpB: 460000 RLU s^−1
  reactivation of small aggregates of luciferase (heat-aggregated 5 min) without KJE; luminescence, in parenthesis percent of WT ClpB: 400000 RLU s^−1
[6]
  stoichiometry N: 4
[7]
  stoichiometry N: 6 and 2

B3: Mycobacterium tuberculosis ClpB L97D (natural protein)
chain: not shown
[1]
  reactivation of large aggregates of luciferase (heat-aggregated 15 min) with KJE; luminescence, in parenthesis percent of WT ClpB: 70000 RLU s^−1
  reactivation of large aggregates of luciferase (heat-aggregated 15 min) without KJE; luminescence, in parenthesis percent of WT ClpB: 36000 RLU s^−1
  reactivation of small aggregates of luciferase (heat-aggregated 5 min) with KJE; luminescence, in parenthesis percent of WT ClpB: 390000 RLU s^−1
  reactivation of small aggregates of luciferase (heat-aggregated 5 min) without KJE; luminescence, in parenthesis percent of WT ClpB: 180000 RLU s^−1

B4: Mycobacterium tuberculosis ClpB L101Q (natural protein)
chain: not shown
[1]
  reactivation of large aggregates of luciferase (heat-aggregated 15 min) with KJE; luminescence, in parenthesis percent of WT ClpB: 80000 RLU s^−1
  reactivation of large aggregates of luciferase (heat-aggregated 15 min) without KJE; luminescence, in parenthesis percent of WT ClpB: 30000 RLU s^−1
  reactivation of small aggregates of luciferase (heat-aggregated 5 min) with KJE; luminescence, in parenthesis percent of WT ClpB: 490000 RLU s^−1
  reactivation of small aggregates of luciferase (heat-aggregated 5 min) without KJE; luminescence, in parenthesis percent of WT ClpB: 250000 RLU s^−1

B5: Mycobacterium tuberculosis ClpB F140T (natural protein)
chain: not shown
[1]
  reactivation of large aggregates of luciferase (heat-aggregated 15 min) with KJE; luminescence, in parenthesis percent of WT ClpB: 90000 RLU s^−1
  reactivation of large aggregates of luciferase (heat-aggregated 15 min) without KJE; luminescence, in parenthesis percent of WT ClpB: 37000 RLU s^−1
  reactivation of small aggregates of luciferase (heat-aggregated 5 min) with KJE; luminescence, in parenthesis percent of WT ClpB: 600000 RLU s^−1
  reactivation of small aggregates of luciferase (heat-aggregated 5 min) without KJE; luminescence, in parenthesis percent of WT ClpB: 280000 RLU s^−1
